Experimental findings from patent publication US20210324003A1 are described below.

The target in the assay is MT145K SOSIP.664 trimer (MT145 Q171K). The experiment in a line: ELISA. Details: unit not given beside the values. Conditions: Fc fusion. Background: ELISA stands for enzyme-linked immunosorbent assay.

Regarding “Human CD4-IgG2 immunoadhesin (from UniProt P01730 26-204)”, the EC50 is 0.562 ?.
